{"source": "paper PMC11021369", "about": "“Resolving the polycistronic aftermath: Essential role of topoisomerase IA in preventing R-loops in Leishmania” (The Journal of Biological Chemistry, 2024)", "target": "T1, LdTOPIA (DNA topoisomerase IA) (Leishmania donovani DD8) (UniProt A0A3S7WW83)", "T1 sequence (looked up)": "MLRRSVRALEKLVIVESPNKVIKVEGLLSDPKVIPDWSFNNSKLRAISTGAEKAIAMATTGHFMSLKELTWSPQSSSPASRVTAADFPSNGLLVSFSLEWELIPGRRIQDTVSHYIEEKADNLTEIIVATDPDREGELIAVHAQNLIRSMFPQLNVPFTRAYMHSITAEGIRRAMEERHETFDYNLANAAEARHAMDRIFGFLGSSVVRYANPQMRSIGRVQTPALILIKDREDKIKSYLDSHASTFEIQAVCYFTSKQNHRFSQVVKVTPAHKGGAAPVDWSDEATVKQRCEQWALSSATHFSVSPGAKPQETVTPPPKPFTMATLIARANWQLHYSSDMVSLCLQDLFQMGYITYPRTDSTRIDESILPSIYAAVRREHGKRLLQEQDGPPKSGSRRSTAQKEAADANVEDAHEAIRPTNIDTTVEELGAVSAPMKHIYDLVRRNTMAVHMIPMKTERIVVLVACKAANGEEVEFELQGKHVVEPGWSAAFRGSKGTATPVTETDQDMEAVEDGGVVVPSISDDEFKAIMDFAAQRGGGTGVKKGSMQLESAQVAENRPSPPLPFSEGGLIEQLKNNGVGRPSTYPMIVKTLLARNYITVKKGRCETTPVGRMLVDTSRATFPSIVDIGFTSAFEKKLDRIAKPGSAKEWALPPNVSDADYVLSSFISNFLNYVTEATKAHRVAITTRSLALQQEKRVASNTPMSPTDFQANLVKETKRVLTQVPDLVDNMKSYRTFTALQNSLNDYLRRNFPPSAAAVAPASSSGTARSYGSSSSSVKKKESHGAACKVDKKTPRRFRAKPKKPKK", "assay": "EMSA", "conditions": "100 nM DNA, 5-200 nM protein, 0.5 mM EDTA, 50 mM Tris pH 7.5, 100 mM NaCl, 0.5 mM DTT, 5% glycerol, 15 min, 25 °C (EMSA gel at 4 °C), recombinant protein, residues 1-809, protein details: N-term 7xHis, C-term 6xHis, label: 5' 32P", "note": "The exact form of at least one protein or probe is not confirmed. The comparison behind a weaker result is the experiment's own reference, which may not be listed here. Tags and fusion partners may be left off the protein sequences shown."}
{"sequence": "TATTGGGCGCTCTTCCGCTTCCTCGCTCACTG (double strand) [32-bp dsDNA, 32P]", "values": [{"measurement": "binding result", "value": "binds more weakly"}]}
